{"source": "patent US20250236901A1", "about": "“METHOD OF DETECTING A MICROORGANISM HAVING HIPPURICASE ACTIVITY” (BIOSYNTH AG, priority 2022, published 2025)", "test_system": "Campylobacter jejuni DSM 4688", "experiment": "Detection of hippuricase activity with 4-HHA, 4-aminoantipyrine and oxidizing reagent (color / absorbance at 505 nm)", "type": "cell-based", "description": "Campylobacter jejuni DSM 4688 (C. j., catalase positive), Eschericha coli (E. coli, catalase positive) and Campylobacter coli DSM 4689 (C. c., catalase positive), Streptococcus agalactiae ATCC®12386 (S. a., catalase negative) and Streptococcus pyogenes ATCC®19615 (S. p., catalase negative) were cultivated on Columbia Agar with sheep blood (Thermofischer PB5039A) at 37° C. for 48 h, both Campylobacter strains were cultivated under microaerophilic atmosphere (Oxoid, Campylgen CN0025A).\nBiomass of colonies were suspended in sterile phosphate buffer (100 mM, pH 7.4) and the optical density OD was determined and set to OD600 of 0.9.\nTwo hundred μL of cell suspensions were mixed with 25 μL of 4-hydroxyhippuric acid (4-HHA, Bachem, 4005059) stock solution, prepared in 100 mM phosphate buffer pH adjusted to 7.4 in a microtiter plate (SpektraMax M5, Molecular Devices) and incubated for 70 minutes at 37° C. After incubation, 20 μL of a prepared mixture (12.5×) 4-aminoantipyrine (4-AAP, Merck 06800) and peroxidase (HRP, Merck 77332) and 5 μL of 100 mM H2O2 were added. The absorbance at 505 nm was recorded with a plate reader at room temperature. Final concentrations for the assay were 5 mM, 10 mM and 20 mM 4-HHA, 0.5 mM 4-AAP, 4.5 U/mL HRP and 2 mM H2O2.\nBiomass of colonies were suspended in sterile 100 mM phosphate buffer pH 7.4 and the optical density OD600 was set to 0.9 and then serially diluted with the same buffer to an OD600 of 0.5, 0.2 and 0.1.\nTwo hundred μL of cell suspensions were mixed with 25 μL of 100 mM 4-hydroxyhippuric acid (4-HHA, Bachem 4005059) prepared in 100 mM phosphate buffer pH adjusted to 7.4) in a microtiter plate and incubated for 1 h at 37° C. […] The absorbance at 505 nm was recorded with a plate reader (SpektraMax M5, Molecular Devices) at room temperature. […]\nTwo hundred μL of cell suspension were mixed with 25 μL of 100 mM 4-hydroxyhippuric acid (4-HHA, Bachem 4005059, dissolved in 100 mM phosphate puffer pH 7.4) in microtiter plate and incubated for 1 h at 37° C. […] The absorbance at 505 nm was recorded with a plate reader. […]"}
{"compound": "O=C(O)CNC(=O)c1ccc(O)cc1", "note": "[4-HHA, p-hydroxyhippuric acid]", "values": [{"measurement": "final concentration of 4-HHA with the best performance", "setting": "Example 1, 5, 10 and 20 mM tested, HRP/H2O2", "value": 10, "unit": "mM"}, {"measurement": "OD600 value at which red/pink color was even visible by eye", "setting": "Example 2, HRP/H2O2, corresponds to about 2×10^6 CFU/mL", "value": 0.1}, {"measurement": "OD600 value at which red color was even visible by eye", "setting": "Example 3, HRP/glucose/GOD, corresponds to about 2×10^6 CFU/mL", "value": 0.1}]}
